Human monoclonal antibodies against the spike receptor-binding domain (heavy:light variable regions). IC50 against pseudoviruses bearing the spike of naturally observed variants; lower = stronger; >10 µg/ml means not reached at the top dose. No active / inactive call. The stated detection limit is 0.0005 µg/ml; values near or below 0.001 µg/ml lie at the floor of the assay.
B1: BD56-941 (protein)
chain 1: QVHLVQSGAEVKKPGASVKVSCKASGYTFTTFGISWVRQAPGQAFEWVGWISAYNGNTKIAQKFHGRVTMTADTSTSTAYMEVRSLRSDDTAIYYCARDNRDYGDALDYWGQGTLVTVSS
chain 2: DVQMTQSPSTLSASVGARVTITCRASQSISRWLAWYQQKPGKAPKLLVYQAFRLESGVPSRFSGSGSGTEFTLTISNLQPDDFATYYCQQYNTYSPYTFGQGTKLEIK
B2: BD56-936 (protein)
chain 1: QVQLVQSGAVMKKPGSSVKVTCKASGGTFSSNSISWVRQAPGQGLEWMGRIIPILAIPNYAQKFQGRVTITADKSTSTAYMELSSLRSEDTAVYYCARDRGYSSSSASYYMDVWGKGTTVTVSS
chain 2: QSVLTQPPSVSGAPGQRVTISCTGDSSSIGAGYDVHWYQQLPGTAPKLLIYGSSNRPSGVPDRFSGSKSGTSASLAITGLQAEDEAEYYCQSYDSSLSDSVFGSGTKLTVL
B3: BD56-925 (protein)
chain 1: QVHLVQSGAEVKKPGASVKVSCKASGYTFTSYGISWVRQAPGQGLEWMGWISTFNGDTTYAQKTQGRVTMTTDTSTSTAYLELRNLRSDDTAVFYCARVVSFYDRSTFYFFDYWGQGTLVTVSS
chain 2: EIVMTQSPATLSVSPGERATLSCRASQSISSNLAWYQQKPDQTPRLLIYGASTRATGIPARFSGSGSGTEFTLTISSLKSEDFAVYYCQQYDDWPPTWTFGQGTRVEIK
B4: BD56-938 (protein)
chain 1: QVQLVESGGGLVKPGGSLRISCAASGFTFSDYYMSWIRQAPGKGLEWVSYISSGSSFTDYADSVKGRFTISRDNAKNSLWLRLTSLRDEDTAVYYCARVGPKTSSSTWYDDPQYKYHYMDVWGKGTTVAVSS
chain 2: EIVLTQSPGTLSLSPGERATLSCRASQSVSSTYLAWYQQRPGQAPRLLIYGASSRATGIPDRFSGSGSGTDFTLTISRLEPEDFAVYYCQQCGASPWTFGQGTKVEIK
B5: BD56-948 (protein)
chain 1: QVHLVQSGAEVKKPGASVKLSCKSSGYTFTSYSLHWVRQAPGQGLEWMGIINPSGGGTRYAQKFQGRVTMTRDTSTNTVYMELRSLRSDDTAVFYCAREGCSGTSCFGAWGQGTLVTVSS
chain 2: SYVLTQPPSVSVAPGQTARITCGGSDIGSKSVHWYQHKPGQAPVLVVYDDSDRPSGIPERFSGSNSGNTATLTISRVEAGDEADYYCQLFDGTTDHHYVFGSGTKVTVL
B6: BD56-927 (protein)
chain 1: QVTLRESGPALVKPTQTLTLTCTFSGFSFSTSGMCVTWIRQPPGKALEWLALINSDDDKYYSTSLKPRLTISKDTSKNQVVLTMTKVDPVDTATYYCARINRVNYYDRSGYRAFDYYGLDVWGQGTTVTVSS
chain 2: EIVLTQSPDTLSLSPGERATLSCRASQSVSSTYLAWYQHKPAQAPRLLIYGASSRATGIPDRFGGSGSGTDFTLTISRVEREDFAVYYCQQYGGSTPITFGQGTRLEMK
B7: BD56-912 (protein)
chain 1: QLQLQESGPGLVKPSETLSLTCSVSGGYVSSGSYYWAWLRQPPGTGLEWIGSISYTGTTSYNPSLKSRVTLSVDTSMDQFSLKVTSVTAADTAVYYCARGSTIRLSDAFDIWGQGTIVTVFS
chain 2: QSVLTQPPSVSAAPGQKVTISCSGSSTNIGNNYVSWYQQLPGTAPKLLIYGNNKRPSGIPDRFSGSKSGTSATLGITGLLTGDEAAYYCGTWDTSLRAVVFGGGTKLTVL
B8: BD56-944 (protein)
chain 1: QVQLVQSGAEVKKPGASVRVSCKASGYTFTSYGISWVRQAPGQGLEWMGWIGGYNDNTNYARDLQGRVTMTTDTSTSTAYMELRSLRSDDTAVYYCARVGEYYSDRSAYYFDHWGQGTLVTVSS
chain 2: EVVMTQSPATLSVSPGERATLSCRASQSVSRNLAWYQQKPGQAPRVLIYGASTRATGIPARFSGSGSGTEFTLTISSLQSEDFAVYYCQQYDNWPPEFTFGPGTKLNIK
B9: BD56-917 (protein)
chain 1: EVQVLESGGGLVQPGGSLRLSCAASGFTFNIYAMNWVRQAPGKGLEWVSLISGSGDHTYYADSVKGRFTISRDNSKNTVYLQMNSLRAEDTAVYYCTMKYRLVSVVYYFDFWGQGTQVTVSS
chain 2: DIQMTQSPSSLSASIGDRVTITCRASQGINNYLNWYQQKPGKAPNLLIYAASNLQSGVPSRFSGSGSGTDFTLTISSLQPEDFATYYCQQSYNTPRTFGQGTKLEMK
B10: CV07-222 (protein)
chain 1: QVQLVQSGAEVKKPGASVKVSCKASGYTFTDYYVHWVRQAPGQGLEWMGWINPISGGTNYAQKFQGRVTMTRDTSISTAYMELSRLRSDDTAVYYCARGPYYYDSSGSLGAFDIWGQGTMVTVSS
chain 2: QSALTQPASVSGSPGQSITISCTGTSSDVGSYNLVSWYQQHPGKAPKLMIYEGSKRPSGVSNRFSGSKSGNTASLTISGLQAEDEAHYYCCSYAGGSTSYVFGTGTKVTVL
B11: BD56-914 (protein)
chain 1: QVQLVESGGGVAQPGTSVRLSCAASGFTFSSYAMHWVRQAPGKGLEWVAVISYDGRNKYYVDSVKGRFTISRDNSKNTLYVQMNSLRPEDTAVYYCTKAAGSGWYDVYQFGMDVWGRGTTVTVSS
chain 2: QSVLTQPPSVSGAPGQRVTISCTGRSSNIGSGYDVHWYQQLPGTAPKLLIYANSNRPSGVPDRFSGSKSDISASLAITGLQAEDEADYYCQSYDSTLSRWVFGGGTRLTVL
B12: BD56-918 (protein)
chain 1: QVQLVQSGAEVKKPGASVKVSCEAIGYTFANYGIGWVRQAPGQGLEWMGWINAYNGNTNYAQKFQGRVTMTTDTSTRTAYMELRSLRSDDTAVYYCAREGGYCSSSSCHSTSDNYFDSWGQGTLVTVSS
chain 2: SYVLTQPPSVSVAPGKTARITCGGSNIGSKGVHWYQQRPGQAPVLVIYFDSDRPSGIPERFSGSNSGNTATLTITRVDAGDEADYYCQVWDSSGDHWVFGGGTKLTVL

Experiments:
Assay in all cases: pseudovirus neutralization IC50; higher = weaker neutralization
[1] = target: SARS-CoV-2 Omicron BA.1 spike pseudovirus
Protocol: (§1)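 Single-round VSV luciferase pseudovirus mixed with antibody dilutions for 1 h and put on Huh-7 cells for about a day; IC50 from the dose curve.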

[2] = target: SARS-CoV-2 Omicron BA.2 spike pseudovirus
Protocol: as §1

[3] = target: SARS-CoV-2 Omicron BA.2.75 spike pseudovirus
Protocol: as §1

[4] = target: SARS-CoV-2 Omicron BA.5 spike pseudovirus
Protocol: as §1

[5] = target: SARS-CoV-2 Omicron BQ.1.1 spike pseudovirus
Protocol: as §1

[6] = target: SARS-CoV-2 Omicron XBB spike pseudovirus
Protocol: as §1

[7] = target: SARS-CoV-2 early D614G spike pseudovirus
Protocol: as §1

Binder	pseudovirus neutralization IC50 [1]	pseudovirus neutralization IC50 [2]	pseudovirus neutralization IC50 [3]	pseudovirus neutralization IC50 [4]	pseudovirus neutralization IC50 [5]	pseudovirus neutralization IC50 [6]	pseudovirus neutralization IC50 [7]
B1	> 10 mg/L	> 10 mg/L	> 10 mg/L	> 10 mg/L	> 10 mg/L	> 10 mg/L	0.117 mg/L
B2	0.0626 mg/L	0.0425 mg/L	0.0786 mg/L	> 10 mg/L	> 10 mg/L	4.09 mg/L	0.169 mg/L
B3	0.496 mg/L	0.309 mg/L	0.299 mg/L	0.738 mg/L	1.24 mg/L	2.57 mg/L	0.8 mg/L
B4	0.0469 mg/L	0.0659 mg/L	0.0824 mg/L	0.0293 mg/L	5.33 mg/L	4.96 mg/L	0.0119 mg/L
B5	> 10 mg/L	> 10 mg/L	> 10 mg/L	> 10 mg/L	> 10 mg/L	> 10 mg/L	> 10 mg/L
B6	0.237 mg/L	1.62 mg/L	1.18 mg/L	1.96 mg/L	1.89 mg/L	1.57 mg/L	0.0736 mg/L
B7	> 10 mg/L	> 10 mg/L	> 10 mg/L	> 10 mg/L	> 10 mg/L	> 10 mg/L	3.02 mg/L
B8	1.15 mg/L	3.49 mg/L	1.46 mg/L	3.79 mg/L	3.03 mg/L	2.94 mg/L	3.15 mg/L
B9	0.00303 mg/L	0.00194 mg/L	0.00129 mg/L	> 10 mg/L	> 10 mg/L	> 10 mg/L	0.00326 mg/L
B10	> 10 mg/L	> 10 mg/L	> 10 mg/L	> 10 mg/L	> 10 mg/L	> 10 mg/L	0.0151 mg/L
B11	> 10 mg/L	> 10 mg/L	> 10 mg/L	> 10 mg/L	> 10 mg/L	> 10 mg/L	> 10 mg/L
B12	3.14 mg/L	5.76 mg/L	> 10 mg/L	> 10 mg/L	> 10 mg/L	> 10 mg/L	6.83 mg/L

Reference: the supplement of paper PMC9931576
